Results from ChEMBL document CHEMBL5331107 (J Med Chem, 2023).

How the values were obtained:
Details in all cases: human
in vitro [1] = test: in vitro
in vitro [2] = test: in vitro; remark: listed apart in the source
in vitro [3] = test: in vitro; remark: listed apart in the source
in vitro [4] = test: in vitro; remark: listed apart in the source
in vitro [5] = test: in vitro; remark: listed apart in the source
in vitro [6] = test: in vitro; remark: listed apart in the source
in vitro [7] = test: in vitro; remark: listed apart in the source
in vitro [8] = test: in vitro; remark: listed apart in the source

SMILES: Cc1cc(C#N)cc(C)c1Oc1nc(Nc2ccc(C#N)cc2)nc(N)c1Br [ETRAVIRINE]
- selectivity ratio (in vitro [1]): > 69
- selectivity ratio (in vitro [2]): > 1320
- selectivity ratio (in vitro [3]): > 221
- selectivity ratio (in vitro [4]): > 278
- selectivity ratio (in vitro [5]): > 1170
- selectivity ratio (in vitro [6]): > 179
- selectivity ratio (in vitro [7]): > 144
- selectivity ratio (in vitro [8]): > 330
